A mixed list of measured activities; the numbers were collected in NIAID ChemDB.

Shared fields: tests in culture; organism: HIV-1; method: cytopathic effect / XTT; read-out: EC50

ECn: concentration that inhibits the pathogen or its effect by n%.

CCc1c(Sc2ccccn2)n(COCc2ccccc2)c(=O)[nH]c1=O ; changes: RT-Y181C ; cells: CEM + CEM-SS ; strain or isolate: IIIB ; value: 3.4 µM
Fc1cccc(F)c1C1SCc2nc3ccccc3n21 ; changes: RT-D138K ; cells: CEM ; strain or isolate: IIIB ; value: 1.73 µM
Cc1cn([C@H]2C[C@H](N=[N+]=[N-])[C@@H](CO)O2)c(=O)[nH]c1=O ; cells: CEM + CEM-SS ; strain or isolate: McK ; value: 0.006 µM
CC(C)=CCN1Cc2cc(Cl)cc3[nH]c(=S)n(c23)C[C@@H]1C ; changes: RT-Y181C ; cells: CEM ; strain or isolate: IIIB ; value: 6.6 µM
Cc1ccnc2c1NC(=O)c1cccnc1N2C1CC1 ; changes: RT-D67N K70R L100I T215Y K219Q ; cells: CEM + CEM-SS ; strain or isolate: 4xAZT/L100I(RT-D67N K70R T215Y K219Q L100I) ; value: 0.03 µM
Fc1cccc(F)c1[C@H]1SCc2nc3ccccc3n21 ; changes: RT-Y188C ; cells: CEM ; strain or isolate: IIIB ; value: 4.16 µM
CCc1c(Sc2ccccn2)n(COCc2ccccc2)c(=O)[nH]c1=O ; changes: RT-Y181C ; cells: CEM + CEM-SS ; strain or isolate: UC040-R (RT-Y181C) ; value: 2.2 µM
CC(C)=CCN1Cc2cccc3[nH]c(=S)n(c23)C[C@@H]1C ; changes: RT-Y181C ; cells: CEM + CEM-SS ; strain or isolate: UC38-R(RT-Y181C ; value: 1.8 µM
Fc1cccc(F)c1C1SCc2nc3ccccc3n21 ; cells: CEM + CEM-SS ; strain or isolate: G ; value: 1.115 µM
Cc1cn([C@H]2C[C@H](N=[N+]=[N-])[C@@H](CO)O2)c(=O)[nH]c1=O ; cells: U-937 ; strain or isolate: IIIB ; value: 0.003 µM
C/C=C/CSc1cc(NC(=S)c2ccsc2C)ccc1Cl ; cells: CEMx174 + CEM ; strain or isolate: IIIB ; value: 0.1 µM
CC(C)(C)NC(=O)[C@@H]1C[C@@H]2CCCC[C@@H]2CN1C[C@@H](O)[C@H](Cc1ccccc1)NC(=O)[C@H](CC(N)=O)NC(=O)c1ccc2ccccc2n1 ; changes: PR-V82A ; cells: MT-4 ; strain or isolate: IIIB ; value: 0.013 µM
Cc1ccnc2c1NC(=O)c1cccnc1N2C1CC1 ; changes: RT-P236L ; cells: CEM + CEM-SS ; strain or isolate: IIIB HEPT-resistant (RT P236L) ; value: 0.3 µM
Cc1ccnc2c1NC(=O)c1cccnc1N2C1CC1 ; changes: RT-Y181C ; cells: CEM + CEM-SS ; strain or isolate: E BPTU-resistant (RT Y181C) ; value: 1.9 µM
Cc1cn([C@H]2C[C@H](N=[N+]=[N-])[C@@H](CO)O2)c(=O)[nH]c1=O ; changes: RT-L74V ; cells: CEM + CEM-SS ; strain or isolate: NL4-3 ; value: 0.03 µM
Cc1cn([C@H]2C[C@H](N=[N+]=[N-])[C@@H](CO)O2)c(=O)[nH]c1=O ; cells: MT-2 ; strain or isolate: G910-6 AZT-resistant ; value: >1 µM
CCc1c(C(=O)c2cc(C)cc(C)c2)n(CC2CC=CC2)c(=O)[nH]c1=O ; setting: clinical isolate ; cells: PBMC ; strain or isolate: CLADE F ; value: 0.003 µM
Cc1occc1C(=S)Nc1ccc(Cl)c(/C=N/OC(C)(C)C)c1 ; changes: RT-P236L ; cells: CEM + CEM-SS ; strain or isolate: HEPT-resistant (RT P236L) ; value: 0.2 µM

The last 3 rows once more:

structure,changes,setting,cells,strain or isolate,value
Cc1cn([C@H]2C[C@H](N=[N+]=[N-])[C@@H](CO)O2)c(=O)[nH]c1=O,,,MT-2,G910-6 AZT-resistant,>1 µM
CCc1c(C(=O)c2cc(C)cc(C)c2)n(CC2CC=CC2)c(=O)[nH]c1=O,,clinical isolate,PBMC,CLADE F,0.003 µM
Cc1occc1C(=S)Nc1ccc(Cl)c(/C=N/OC(C)(C)C)c1,RT-P236L,,CEM + CEM-SS,HEPT-resistant (RT P236L),0.2 µM

An empty or dashed field is not shown. Conditions beyond the fields shown may differ between rows.